Compound potency records, mixed from different reports. Data source: NIAID ChemDB in PubChem.

Shared fields: whole-cell or culture tests; species: HIV-1; method: RT activity; read-out: EC50

ECn: concentration that inhibits the pathogen or its effect by n%. Conditions beyond the fields shown may differ between rows. An empty or dashed field is not shown. a–b is a range or a potency band.

compound	conditions	cell line	strain or isolate	mutations	result
Nc1nc(NC2CC2)c2ncn([C@H]3CO[C@@H](CO)O3)c2n1		MT-4	IIIB Laboratory strain		0.14 µM
CCOC(=O)[C@H](C)NP(=O)(OC[C@@H]1OC[C@H](n2cnc3c(=O)[nH]c(N)nc32)O1)Oc1ccccc1		PBMC	LAI		0.4 µM
CC(C)C1=C2C3CCC4[C@@]5(C)CC[C@H](OC(=O)CC(C)(C)C(=O)O)C(C)(C)C5CC[C@@]4(C)[C@]3(C)CC[C@@]2(NC(=O)N2CC[C@@H](N)C2)CC1=O	30% human serum	MT-2	IIIB		0.2–0.999 µM
CC(=Nc1ccc(O)cc1)C1Sc2ncccc2C1=O		PBMC	NL4-3		4.49 µM
CC(C)C1=C2[C@H]3CC[C@@H]4[C@@]5(C)CC[C@H](OC(=O)CC(C)(C)C(=O)O)C(C)(C)[C@@H]5CC[C@@]4(C)[C@]3(C)CC[C@@]2(NC(=O)NC2CNC2)CC1=O	30% human serum	MT-2	IIIB		0.2–0.999 µM
S=C(NCCN1CCNCC1)Nc1ccc(Br)cn1		CEM + CEM-SS	IIIB		13 µM
CCc1c(C)[nH]c(=O)c(N)c1Sc1ccccc1		CEM + CEM-SS	LAI		0.32 µM
O=C1[C@@H](Cc2ccccc2)NC(=S)N1c1ccccc1		MT-4			<10 µg/mL
CCCc1cc(=O)oc2c3c(c4c(c12)OC(C)(C)CC4)O[C@@H](C)[C@H](C)[C@@H]3O		PBMC	CLADE A		0.5 µM
O=C(NCCc1ccccc1)Nc1nc(C(F)(F)F)cs1		MT-4			<1 µg/mL
Cc1cn([C@H]2C[C@H](N=[N+]=[N-])[C@@H](CO)O2)c(=O)[nH]c1=O		PBMC	89BZ167		0.0026 µM
Nc1nc2c(ncn2[C@@H]2C=C(F)[C@H](CO)O2)c(=O)[nH]1		PBMC	LAI		>100 µM
Nc1ncnc2c1ncn2[C@@H]1O[C@H](COC2(c3ccccc3)c3ccccc3Oc3ccccc32)[C@@H](OC2(c3ccccc3)c3ccccc3Oc3ccccc32)[C@H]1OC1CCCCO1		PBMC	IIIB		1.5 µM
C[C@@H]1CCO[C@H]2Cn3cc(C(=O)NCc4ccc(F)cc4F)c(=O)c(O)c3C(=O)N12		CBMC	NL4-3	M50I	0.0011 µM
CC(C)C1=C2C3CCC4[C@@]5(C)CC[C@H](OC(=O)CC(C)(C)C(=O)O)C(C)(C)C5CC[C@@]4(C)[C@]3(C)CC[C@@]2(NC(=O)N2CC[C@@H](NC(=O)OC(C)(C)C)C2)CC1=O	30% human serum	MT-2	IIIB		<0.199 µM
Cc1nc2ccccc2nc1COC(=O)c1ccc(O)cc1		PBMC	89BZ167		>100 µM
CCCCN1C(=O)[C@@H](Cc2ccccc2)NC1=S		MT-4			<100 µg/mL
COc1cc2c(cc1Cc1c(F)cccc1Cl)nc(-c1c(F)cccc1Cl)n2Cc1c(F)cccc1Cl		MT-4	IIIB		>127 µM
Cc1ccc(C(=O)OCc2nc3ccccc3nc2C)cc1O		PBMC	BaL		>100 µM
CCCCCCCCCCCCCCNC(=O)[C@@H](N)CS[C@@H]1O[C@H](CO)[C@H](O)[C@H](O)[C@H]1NC(C)=O		CEM + CEM-SS	LAI		>30 µM
Cc1cn([C@@H]2O[C@H](CO[Si](C)(C)C(C)(C)C)C3(O[C@H]3C(N)=O)[C@H]2O[Si](C)(C)C(C)(C)C)c(=O)[nH]c1=O		PBMC	LAI		7 µM
CCN1C[C@H](C)n2c(c(O)c3c(=O)n(Cc4ccc(F)c(Cl)c4)nc(C(=O)NC)c32)C1=O		PM1	NL4-3	G118R/E138K	0.0153 µM
Cc1nc2ccccc2nc1COC(=O)c1ccc2ccccc2c1O		PBMC	89BZ167		>100 µM
O=c1ccn([C@H]2C=C[C@@H](CO)O2)c(=O)n1C/C=C/CN1CCN(CCNC(=S)Nc2ccc(Br)cn2)CC1		MT-4	IIIB		>100 µM
COc1c(C)c2c(c(O)c1C/C=C(\C)CCC(=O)O)C(=O)OC2		U-937	LAV-1		~0.01 µM
COc1ccc(C[C@H](C[C@H](O)[C@H](Cc2ccccc2)NC(=O)OC(C)(C)C)C(=O)N[C@H](C(=O)N[C@@H](Cc2ccccc2)C(=O)N2CCOCC2)C(C)C)cc1		MT-2	MN		0.0045 µM
COc1cc(OC)cc(C(=O)OCc2nc3ccccc3nc2C)c1		PBMC	89BZ167		>100 µM
Nc1nc2c(ncn2[C@H]2C=C(F)[C@@H](CO)O2)c(=O)[nH]1		PBMC	LAI		>100 µM
Cc1ccc2nc(-c3c(F)cccc3F)n(Cc3c(F)cccc3F)c2c1		MT-4	IIIB		7.35 µM
CCCCCCCCCCCCCC=O		H9	IIIB		<10 µg/mL
C=CCN(CC(=O)N[C@H](C(=O)N[C@H](C(=O)OC)C(C)C)[C@@H](C)CC)C(=O)[C@H](Cc1ccccc1)NC(=O)[C@H](C)NC(=O)OC(C)(C)C		CEM	LAI		10 µg/mL
CCCCCCCCCCCCCCNC(=O)[C@H](N)CO[C@@H]1O[C@H](CO)[C@H](O)[C@H](O)[C@H]1O		CEM + CEM-SS	LAI		>100 µM
CCNC(=O)N[C@@]12CC[C@]3(C)[C@H](CC[C@@H]4[C@@]5(C)CC[C@H](OC(=O)CC(C)(C)C(=O)O)C(C)(C)[C@@H]5CC[C@]43C)C1=C(C(C)C)C(=O)C2	30% human serum	MT-2	IIIB		<0.199 µM
FC(F)(c1ccccc1)C(F)(F)c1nc2ccccc2o1		CEM + CEM-SS	LAI		>100 µM
Cc1ccc(NC(=O)CN2CCN(Cc3nc(-c4ccc(F)cc4)no3)CC2)cc1		PBMC	93BR020		13 µM
FC(c1cccnc1)C(F)(F)c1nc2ccccc2o1		CEM + CEM-SS	LAI		>100 µM
CCCCCCCC(=O)Nc1nc(N)nc2c1ncn2[C@H]1CO[C@@H](COP(=O)(N[C@@H](C)C(=O)OCC)Oc2ccccc2)O1		PBMC	LAV-1		0.42 µM
Cc1nc2ccccc2nc1COC(=O)c1ccc(O)cc1O		PBMC	89BZ167		>100 µM
Cc1cn([C@H]2C=C[C@@H](CO)O2)c(=O)n(CCCN2CCN(CCNC(=S)Nc3ccc(Br)cn3)CC2)c1=O		MT-4	IIIB		>100 µM
CO[C@H]1O[C@@H](n2ccc(=O)[nH]c2=O)C[C@@H]1N=[N+]=[N-]		PBMC	LAV		0.2 µM
CN(C)c1ncnc2c1ncn2[C@@H]1O[C@H](CO)[C@@H](N)[C@H]1O		H9	X		<2 µg/mL
CC(C)C1=C2C3CCC4[C@@]5(C)CC[C@H](OC(=O)CC(C)(C)C(=O)O)C(C)(C)C5CC[C@@]4(C)[C@]3(C)CC[C@@]2(NC(=O)N2CCC(N)CC2)CC1=O	30% human serum	MT-2	IIIB		0.2–0.999 µM
Nc1nc(N)c2ncn([C@H]3CO[C@@H](CO)O3)c2n1		PBMC	LAI		0.4 µM
O=c1ccn([C@@H]2C=C(F)[C@H](CO)O2)c(=O)[nH]1		PBMC	LAI		>100 µM
Cc1cn([C@H]2C=C[C@@H](CO)O2)c(=O)n(CCOCCN2CCN(CCNC(=S)Nc3ccc(Br)cn3)CC2)c1=O		MT-4	IIIB		52 µM
CCCCCCCCCCCCCCCC(=O)Nc1nc(N)nc2c1ncn2[C@H]1CO[C@@H](COP(=O)(N[C@@H](C)C(=O)OCC)Oc2ccccc2)O1		PBMC	LAV-1		0.083 µM
CC(C)C1=C2C3CCC4[C@@]5(C)CC[C@H](OC(=O)CC(C)(C)C(=O)O)C(C)(C)C5CC[C@@]4(C)[C@]3(C)CC[C@@]2(NC(=O)OCC2CCCCC2)CC1=O	30% human serum	MT-2	IIIB		<0.199 µM
CCCCCCCCCCCC(=O)Nc1nc(N)nc2c1ncn2[C@H]1CO[C@@H](COP(=O)(N[C@@H](C)C(=O)OCC)Oc2ccccc2)O1		PBMC	LAV-1		0.98 µM
CC(C)C1=C2[C@H]3CC[C@@H]4[C@@]5(C)CC[C@H](OC(=O)[C@H]6CC[C@@](C)(C(=O)O)C6(C)C)C(C)(C)[C@@H]5CC[C@@]4(C)[C@]3(C)CC[C@@]2(NC(=O)OC(C)(C)C)CC1=O	30% human serum	MT-2	IIIB		<0.199 µM
FC(F)(Cc1ccccc1)c1nc2ccccc2o1		CEM + CEM-SS	LAI		>100 µM
CCOC(=O)[C@H](C)NP(=O)(OC[C@@H]1OC[C@H](n2cnc3c(NC(C)=O)nc(N)nc32)O1)Oc1ccccc1		PBMC	LAV-1		19 µM
CCCCCCCCCCCCCCCCNC(=O)[C@@H](N)CO[C@@H]1O[C@H](CO)[C@H](O)[C@H](O)[C@H]1O		CEM + CEM-SS	LAI		50 µM
CCCC(=O)Nc1nc(N)nc2c1ncn2[C@H]1CO[C@@H](COP(=O)(N[C@@H](C)C(=O)OCC)Oc2ccccc2)O1		PBMC	LAV-1		1.2 µM
CCc1c(C)[nH]c(=O)c2c1Sc1ccccc1C(=O)N2		CEM + CEM-SS	LAI		0.084 µM
Cc1cn([C@@H]2C=C(F)[C@H](CO)O2)c(=O)[nH]c1=O		PBMC	LAI		>100 µM
CC[C@H](C)[C@H](NC(=O)C(C)N(C(=O)[C@H](Cc1ccccc1)NC(=O)[C@H](C)NC(=O)OC(C)(C)C)C(Br)CBr)C(=O)N[C@H](C(=O)OC)C(C)C		CEM	LAI		200 µg/mL
COc1cc2nc(-c3c(F)cccc3Cl)n(Cc3c(F)cccc3Cl)c2cc1Cc1c(F)cccc1Cl		MT-4	IIIB		>18.75 µM
O=C(NCCc1ccccc1)Nc1nc2c(Cl)cccc2s1		MT-4			>10 µg/mL
CCOC(=O)[C@H](C)NP(=O)(OC[C@@H]1OC[C@H](n2cnc3c(NC4CC4)nc(N)nc32)O1)Oc1ccccc1		PBMC	LAI		0.006 µM
CC(=O)CCCCn1c(=O)c2c(ncn2C)n(C)c1=O		PBMC			<250 µM

The first 9 rows once more:

| compound | conditions | cell line | strain or isolate | mutations | result |
|---|---|---|---|---|---|
| Nc1nc(NC2CC2)c2ncn([C@H]3CO[C@@H](CO)O3)c2n1 |  | MT-4 | IIIB Laboratory strain |  | 0.14 µM |
| CCOC(=O)[C@H](C)NP(=O)(OC[C@@H]1OC[C@H](n2cnc3c(=O)[nH]c(N)nc32)O1)Oc1ccccc1 |  | PBMC | LAI |  | 0.4 µM |
| CC(C)C1=C2C3CCC4[C@@]5(C)CC[C@H](OC(=O)CC(C)(C)C(=O)O)C(C)(C)C5CC[C@@]4(C)[C@]3(C)CC[C@@]2(NC(=O)N2CC[C@@H](N)C2)CC1=O | 30% human serum | MT-2 | IIIB |  | 0.2–0.999 µM |
| CC(=Nc1ccc(O)cc1)C1Sc2ncccc2C1=O |  | PBMC | NL4-3 |  | 4.49 µM |
| CC(C)C1=C2[C@H]3CC[C@@H]4[C@@]5(C)CC[C@H](OC(=O)CC(C)(C)C(=O)O)C(C)(C)[C@@H]5CC[C@@]4(C)[C@]3(C)CC[C@@]2(NC(=O)NC2CNC2)CC1=O | 30% human serum | MT-2 | IIIB |  | 0.2–0.999 µM |
| S=C(NCCN1CCNCC1)Nc1ccc(Br)cn1 |  | CEM + CEM-SS | IIIB |  | 13 µM |
| CCc1c(C)[nH]c(=O)c(N)c1Sc1ccccc1 |  | CEM + CEM-SS | LAI |  | 0.32 µM |
| O=C1[C@@H](Cc2ccccc2)NC(=S)N1c1ccccc1 |  | MT-4 |  |  | <10 µg/mL |
| CCCc1cc(=O)oc2c3c(c4c(c12)OC(C)(C)CC4)O[C@@H](C)[C@H](C)[C@@H]3O |  | PBMC | CLADE A |  | 0.5 µM |